Results of unrelated studies side by side (data: NIAID ChemDB).

Shared fields: host cell toxicity; cell line: A549; measure: CC50

Rows are shuffled and stem from different studies. CCn is the concentration with n% toxicity to the cells. An empty or dashed field is not shown.

SMILES | method | value
O=C(Nc1ccccc1[Se][Se]c1ccccc1NC(=O)c1ccccc1)c1ccccc1 | MTT | 50 µg/mL
O=c1c2cccnc2[se]n1N(c1ccccc1)c1ccccn1 |  | 70 µg/mL
CCCN1[Se]c2ccccc2NC1=O | MTT | 2.5 µg/mL
O=c1c2cccnc2[se]n1-c1ccc(Cl)cc1 |  | 50 µg/mL
CCCn1[se]c2ccccc2c1=O | visual reading | 3.5 µg/mL
C[n+]1cccc(-n2[se]c3ccccc3c2=O)c1 |  | 80 µg/mL
COc1ccc(-c2noc(C3=CC4(CCN(C(=O)[C@H]5CCCN5C)CC4)c4ccccc43)n2)cc1 | resazurin | 4 µM
COc1cc([C@@H]2c3cc4c(cc3[C@H](OC(C)=O)[C@@H]3COC(=O)[C@@H]23)OCO4)cc2nc3ccccc3nc12 |  | 1 µM
O=C1Nc2ccccc2C12CCN(Cc1ccccc1)CC2 | resazurin | >50 µM
O=c1c2ccccc2[se]n1-c1ccccn1 |  | 120 µg/mL
O=c1c2cc(O)c(O)cc2oc2cc(O)cc(O)c12 | sulforhodamine / absorbance | 44.85 µM
O=[N+]([O-])c1ccc(-c2nc(SCC3CC3)n[nH]2)cc1 | MTT | >100 µg/mL
COc1cc(O)cc2oc3cc(O)c(O)cc3c(=O)c12 | sulforhodamine / absorbance | >50 µM
COc1cc([C@@H]2c3cc4c(cc3[C@H](O)[C@H]3COC(=O)[C@H]23)OCO4)cc(OC)c1OC |  | 0.012 µM
Fc1ccc(-c2nc(SCCCCBr)n[nH]2)cc1 | MTT | >100 µg/mL
COc1cc([C@@H]2c3cc4c(cc3[C@H](OC(C)=O)[C@@H]3COC(=O)[C@@H]23)OCO4)cc(O)c1O |  | 5.84 µM
CCOC(=O)n1[se]c2ccccc2c1=O | visual reading | 17 µg/mL
O=c1c2cccnc2[se]n1N(c1ccccc1)c1cc(Cl)ccn1 |  | 80 µg/mL
C1=C(c2nc(-c3ccsc3)no2)c2ccccc2C12CCN(CC1CCCO1)CC2 | resazurin | 12 µM
COc1cc(-c2ccccc2)c(O)c(OC)c1O | sulforhodamine / absorbance | >50 µM
C[N+](C)(C)CCn1[se]c2ccccc2c1=O | visual reading | 156 µg/mL
C1=C(c2nc(-c3ccncc3)no2)c2ccccc2C12CCN(CC1CCCO1)CC2 | resazurin | 75.7 µM
COc1cc([C@@H]2c3cc4c(cc3[C@H](OC(C)=O)[C@@H]3COC(=O)[C@@H]23)OCO4)cc2nccnc12 |  | 0.56 µM
S=c1nc(-c2ccco2)[nH][nH]1 | MTT | >100 µg/mL
O=c1c2ccccc2[se]n1CO | visual reading | 4 µg/mL
O=c1c2ccccc2[se]n1-c1ccccc1 | MTT | 15 µg/mL
Cn1[se]c2c(ccc[n+]2C)c1=O |  | 15.6 µg/mL
O=c1c2ccccc2[se]n1C1C2CC3CC(C2)CC1C3 | visual reading | 78 µg/mL
Nc1ccccc1[Se][Se]c1ccccc1N | MTT | 7 µg/mL
Cc1cccnc1-n1[se]c2ccccc2c1=O |  | 230 µg/mL
COc1ccc(Cc2noc(C3=CC4(CCN(CC5CCCO5)CC4)c4ccccc43)n2)cc1 | resazurin | 10.2 µM
CC(C)n1[se]c2ccccc2c1=O | visual reading | 3.5 µg/mL
O=C1N(CC2CC2)c2ccccc2C12CCN(Cc1cccnc1)CC2 | resazurin | >50 µM
CCCCSc1n[nH]c(-c2ccccc2C)n1 | MTT | >100 µg/mL
COC(=O)[C@@H]1[C@H](c2cc(OC)c3nc4cc(C)c(C)cc4nc3c2)c2cc3c(cc2C2=NOC[C@@H]21)OCO3 |  | 1 µM
S=c1[nH]nc(-c2ccc(Cl)cc2)s1 | MTT | >100 µg/mL
COC(=O)Cn1[se]c2ccccc2c1=O | visual reading | 6.1 µg/mL
O=C1c2c(O)cc(O)cc2O[C@H](c2ccc(O)cc2)[C@H]1c1c(O)cc(O)c2c(=O)cc(-c3ccc(O)c(O)c3)oc12 | sulforhodamine / absorbance | >50 µM
COC(=O)[C@@H]1[C@H](c2cc(OC)c3nc4cc(Cl)c(Cl)cc4nc3c2)c2cc3c(cc2C2=NOC[C@@H]21)OCO3 |  | >18 µM
C1=C(c2nc(-c3ccccc3)no2)c2ccccc2C12CCN(CC1CC1)CC2 | resazurin | 21 µM
COc1cc([C@@H]2c3cc4c(cc3[C@H](OC(C)=O)[C@@H]3COC(=O)[C@H]23)OCO4)cc2c1OCO2 |  | 2.27 µM
C[C@H]1[C@H](O)C(=O)CC2[C@]3(C)CC[C@@]4(C)C5CC(C)(C)CC[C@]5(C)CC[C@]4(C)C3CC[C@@]21C | sulforhodamine / absorbance | >50 µM

Repeating the first 6 entries:

| SMILES | method | value |
|---|---|---|
| O=C(Nc1ccccc1[Se][Se]c1ccccc1NC(=O)c1ccccc1)c1ccccc1 | MTT | 50 µg/mL |
| O=c1c2cccnc2[se]n1N(c1ccccc1)c1ccccn1 |  | 70 µg/mL |
| CCCN1[Se]c2ccccc2NC1=O | MTT | 2.5 µg/mL |
| O=c1c2cccnc2[se]n1-c1ccc(Cl)cc1 |  | 50 µg/mL |
| CCCn1[se]c2ccccc2c1=O | visual reading | 3.5 µg/mL |
| C[n+]1cccc(-n2[se]c3ccccc3c2=O)c1 |  | 80 µg/mL |